Taken from: PubChem BioAssay AID504761 (Drosophila RNAi Screening Center, 2011)
Purpose: 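Genome-wide fly cell screen for genes dengue virus requires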 (primary screen). Cells: D.Mel-2 cells from Drosophila. Reagents: long dsRNA against Drosophila genes. Challenge: infection with dengue virus type 2; dose and infection time not stated. Detection: 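Cells stained for dengue envelope protein and imaged; percent of infected cells per well on duplicate plates, ranked by infection, with stained nuclei counted for cell number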. Scale: infection score: higher = more virus-infected cells; cell count: higher = more cells in the well. Rule for the call: 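Very low infection ranking in both replicate wells (chance probability at most 0.065), then a retest showing infection dropped 1.5-fold or more at p below 0.05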. Meaning of the calls: active = confirmed: knock-down lowers infection; inactive = not picked or not confirmed.
In all, the deposit lists about 22,000 reagents; below is an unselected part of those with a known target gene and a result. Over the whole deposit, 116 (0.52%) are marked active. 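Calls depend on retest data that are not deposited; infection was ranked per plate without normalising between plates; the unit of the infection score is not given.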 Raw values are not corrected between plates. Further read-outs or replicates are left out here. No sequences are given here. Not given: the amount of reagent, the time to read-out.

Cam (GeneID 36329) [SID104187145]: infection score, replicate 1 = 2.65; cell count, replicate 1 = 6495; outcome = inactive
Cam (GeneID 36329) [SID104187146]: cell count, replicate 1 = 477; outcome = inactive
Chrac-16 (GeneID 32166) [SID104200135]: infection score, replicate 1 = 4.94; cell count, replicate 1 = 6432; outcome = inactive
Chrac-16 (GeneID 32166) [SID104202801]: infection score, replicate 1 = 6.42; cell count, replicate 1 = 5998; outcome = inactive
DNaseII (GeneID 48228) [SID104196102]: cell count, replicate 1 = 412; outcome = inactive
Cyp4d21 (GeneID 34036) [SID104183097]: infection score, replicate 1 = 2.7; cell count, replicate 1 = 6223; outcome = inactive
Cyp4d21 (GeneID 34036) [SID104204166]: infection score, replicate 1 = 2.74; cell count, replicate 1 = 6467; outcome = inactive
MED14 (GeneID 38073) [SID104188027]: infection score, replicate 1 = 25.3; cell count, replicate 1 = 6102; outcome = inactive
MED14 (GeneID 38073) [SID104202809]: infection score, replicate 1 = 4.27; cell count, replicate 1 = 5926; outcome = inactive
Prx4 (GeneID 53577) [SID104188460]: infection score, replicate 1 = 1.01; cell count, replicate 1 = 6047; outcome = inactive
Prx4 (GeneID 53577) [SID104203256]: infection score, replicate 1 = 5.09; cell count, replicate 1 = 6654; outcome = inactive
NijB (GeneID 40057) [SID104189642]: infection score, replicate 1 = 4.06; cell count, replicate 1 = 517; outcome = inactive

Part of the list above, set out differently.
| target gene | PubChem SID | infection score, replicate 1 | cell count, replicate 1 | outcome |
| --- | --- | --- | --- | --- |
| Cam (GeneID 36329) | SID104187145 | 2.65 | 6495 | inactive |
| Cam (GeneID 36329) | SID104187146 | – | 477 | inactive |
